Measured values from several laboratories, pooled; numbers as filed in NIAID ChemDB.

Common to all: growth or infection tests; agent: Hepatitis C virus; read by: replicon; measure: EC50

Lines come from different laboratories, so protocols vary. Blank or dashed fields: not listed here. a–b is a range or a potency band. ECn: concentration that inhibits the pathogen or its effect by n%.

SMILES,strain,cell line,setting,value
CNC(=O)c1c(-c2ccc(F)cc2)oc2cc(C(C)=O)c(OC(C)C)cc12,,Huh7,,<1 µM
O=C(Nc1ccc(C2SC(=Nc3ccc(N4CCOCC4)cc3)N(Cc3cccnc3)C2=O)cc1)[C@H]1CCCN1C(=O)OCc1ccccc1,,Huh7,,0.1–1 µM
C=CC1CC1(NC(=O)[C@@H]1C[C@@H](Oc2cc(-c3ccccc3)nc3cc(OC)ccc23)CN1C(=O)[C@@H](N1CCCCC1)C(C)(C)C)C(=O)O,1b,,,<100 µM
CNC(=O)c1c(-c2ccc(F)cc2)oc2cc(N3CCOCC3)c(OCc3cccc(OC)c3)cc12,,Huh7,,<1 µM
COc1cc(OC)c(CCC2(C3CCCC3)CC(O)=C(Sc3nc4nc(C)cc(C)n4n3)C(=O)O2)cc1Cl,WT,,,2.3 µM
C=CC1CC1(NC(=O)[C@@H]1C[C@@H](Oc2cc(-c3ccccc3)nc3cc(OC)ccc23)CN1C(=O)[C@H](c1ccccc1)N1CCCCC1)C(=O)OCC,1b,,,<100 µM
O=C(Nc1ccc(C2SC(=Nc3ccc4c(c3)OCCO4)N(Cc3ccco3)C2=O)cc1)[C@H]1CCCN1C(=O)OCc1ccccc1,,Huh7,,<0.1 µM
CNC(=O)c1c(-c2ccc(F)cc2)oc2cc(N(CS(C)(=O)=O)OC)c(O)cc12,,Huh7,,<10 µM
O=C(Nc1ccc(C2SC(=Nc3ccc(N4CCOCC4)cc3)N(Cc3ccccn3)C2=O)cc1)[C@H]1CCCN1C(=O)C(c1ccccc1)c1ccccc1,,Huh7,,<0.1 µM
CNC(=O)c1c(-c2ccc(F)cc2)oc2cc(N3CCOCC3)c(OCc3cccc4c3C(=O)OC(C)(C)O4)cc12,,Huh7,,<10 µM
CCCC(NC(=O)C1C2CCCC2CN1C(=O)[C@@H](C)N1CCCC1)C(=O)C(=O)NC1CC1,1b,,,>100 µM
CCC[C@H](NC(=O)[C@@H]1[C@H]2CCC[C@H]2CN1C(=O)[C@@H](NC(=O)[C@@H](NC(=O)c1cnccn1)C1CCCCC1)C(C)(C)C)C(=O)C(=O)NC1CC1,,Huh7,20% human serum,1.4 µM
C=CC1CC1(NC(=O)[C@@H]1C[C@@H](Oc2cc(-c3ccccc3)nc3cc(OC)ccc23)CN1C(=O)[C@H](C)N1CCCCC1)C(=O)NS(=O)(=O)C1CC1,1b,,,<100 µM
O=C(Nc1ccc(C2SC(=Nc3cccc(Cl)c3)N(Cc3ccco3)C2=O)cc1)[C@H]1CCCN1C(=O)OCc1ccccc1,,Huh7,,0.1–1 µM
CNC(=O)c1c(-c2ccc(F)cc2)oc2cc(N3CCC(O)C3)c(OC(C)C)cc12,,Huh7,,<1 µM
CCOC(=O)/N=C1\SC(c2ccc(NC(=O)[C@@H](C)NC(=O)OCc3ccccc3)cc2)C(=O)N1Cc1cccnc1,,Huh7,,<0.1 µM
O=C(NCCc1ccccc1)c1nc2ccccc2c(=O)n1O,1b,Ava5,,28.7 µM
C[C@@H](NC(=O)Nc1ccccc1)C(=O)Nc1ccc(C2SC(=Nc3cccc(F)c3)N(Cc3ccco3)C2=O)cc1,,Huh7,,1–5 µM
CNC(=O)c1c(-c2ccc(F)cc2)oc2ccc(OC(F)F)cc12,,Huh7,,<10 µM
C[C@H](NC(=O)OCc1ccccc1)C(=O)Nc1ccc(C2SC(=Nc3ccc(N4CCOCC4)cc3)N(Cc3ccccn3)C2=O)cc1,,Huh7,,>5 µM
C=CC1CC1(NC(=O)[C@@H]1C[C@@H](Oc2cc(-c3ccccc3)nc3cc(OC)ccc23)CN1C(=O)[C@H](C(C)C)N1CCCCC1)C(=O)NS(=O)(=O)C1CC1,1b,,,<100 µM
O=C(NCc1ccc(Cl)cc1)c1nc2ccccc2c(=O)n1O,1b,Ava5,,76.3 µM
O=C(Nc1ccc(C2SC(=Nc3ccc(N4CCOCC4)cc3)N(Cc3ccccn3)C2=O)cc1)[C@H]1CCCN1C(=O)C1(c2ccccc2)CC1,,Huh7,,<0.1 µM
COc1ccc(CNC(=O)c2nc3ccccc3c(=O)n2O)cc1,1b,Ava5,,32.9 µM
CNC(=O)c1c(-c2ccc(F)cc2)oc2cc(N3CCOCC3)c(OCC(C)O)cc12,,Huh7,,<10 µM
O=C(NCCCc1ccccc1)c1nc2ccccc2c(=O)n1O,1b,Ava5,,17.5 µM
CCCC(NC(=O)C1C2CCCC2CN1C(=O)C(C)N1CCCCC1)C(=O)C(=O)NC1CC1,1b,,,<100 µM
Nc1ccc(CNC(=O)c2nc3ccccc3c(=O)n2O)cc1,1b,Ava5,,21.4 µM
C=CC1CC1(NC(=O)[C@@H]1C[C@@H](Oc2cc(-c3ccccc3)nc3cc(OC)ccc23)CN1C(=O)[C@H](C(C)C)N1CCCCC1)C(=O)OCC,1b,,,<100 µM
O=C(NCc1ccccc1Cl)c1nc2ccccc2c(=O)n1O,1b,Ava5,,36.3 µM
C=CC1CC1(NC(=O)[C@@H]1C[C@@H](Oc2cc(-c3ccccc3)nc3cc(OC)ccc23)CN1C(=O)[C@H](C(C)C)N1CCCCC1)C(=O)O,1b,,,>100 µM

A second listing of 3 rows from above:

SMILES,strain,cell line,setting,value
COc1ccc(CNC(=O)c2nc3ccccc3c(=O)n2O)cc1,1b,Ava5,,32.9 µM
C[C@@H](NC(=O)Nc1ccccc1)C(=O)Nc1ccc(C2SC(=Nc3cccc(F)c3)N(Cc3ccco3)C2=O)cc1,,Huh7,,1–5 µM
Nc1ccc(CNC(=O)c2nc3ccccc3c(=O)n2O)cc1,1b,Ava5,,21.4 µM